Measured values from several laboratories, pooled; numbers as filed in NIAID ChemDB.

Common to all: growth or infection tests; agent: HIV-1; endpoint: inhibition

Blank or dashed fields: not listed here.

compound	strain or isolate	changes	cells	method	conditions	tested at	value
CCCCCCCCCCCCCCCCO[C@H](CCl)COP(=O)(O)OCC[N+](C)(C)C	IIIB	-	H9	RT activity	-	10 µM	74%
CC(=O)O[C@@H]1O[C@H](COC(=O)[C@H](CC(C)C)NC(=O)[C@H](Cc2ccccc2)NC(=O)CNC(=O)CNC(=O)[C@@H](N)Cc2ccc(O)cc2)[C@@H](OC(C)=O)[C@H](OC(C)=O)[C@H]1OC(C)=O	-	-	PBL	syncytia / RT activity	-	100 µM	21%
Cc1cn([C@H]2C[C@H](N=[N+]=[N-])[C@@H](CO)O2)c(=O)[nH]c1=O	Primary clinical isolate Rome	-	PBMC/HIV-1 + PBMC	p24	-	3.7 µM	78%
N[C@@H](CCC(=O)N1C(=O)SC[C@H]1C(=O)NCC(=O)O)C(=O)O	BaL	-	Macrophage + Monocytes/macrophages	RT activity	-	2000 µM	0%
COc1cc(O)c2c(=O)oc3cc(O)cc(C)c3c2c1	ZM247Fv1	-	SupT1	luciferase	pseudotyped	35 µM	52%
Cc1cn([C@H]2C[C@H](N=[N+]=[N-])[C@@H](CO)O2)c(=O)[nH]c1=O	SF162 R5	-	PBL (resting) + PBL	RT activity	-	4 µM	29%
CC(C)C[C@H](NC(=O)[C@H](Cc1ccccc1)NC(=O)CNC(=O)CNC(=O)[C@@H](N)Cc1ccc(O)cc1)C(=O)O[C@@H]1O[C@H](CO)[C@@H](O)[C@H](O)[C@H]1O	-	-	PBL	syncytia / RT activity	-	100 µM	25%
N#CC[C@H](C1CCCC1)n1cc(-c2ncnc3[nH]ccc23)cn1	BaL	-	Macrophage	p24 / ELISA	-	3.1 µM	90%
CN(C)CCC=C1c2ccccc2CCc2ccccc21	IIIB	-	MOLT-3	RT activity	-	10 µg/mL	20%
CC(C)[C@H](NC(=O)c1ccc2ccccc2n1)C(=O)N[C@@H](Cc1ccccc1)[C@H](O)CN1CC[C@@H](OCc2ccncc2)C[C@H]1C(=O)NC(C)(C)C	UHC-1	-	PBMC	p24	-	0.031 µM	90%
Nc1ncnc2c1ncn2[C@H]1CC[C@@H](CO)O1	-	-	ATH8	cytopathic effect	-	2.5 µM	26.9%
CCCCCCCCCCCCCC(=O)OC[C@@H](COP(=O)(O)OC[C@@H]1CC[C@H](n2ccc(N)nc2=O)O1)OC(=O)CCCCCCCCCCCCC	LAV-Bru	-	CEM13 + CEM	ELISA	-	10 µM	99%
COc1ccc(OC[C@H]2CNCC[C@@H]2c2ccccc2)cc1	IIIB	-	MOLT-3	syncytia	-	4 µg/mL	7%
Nc1ccn([C@H]2CC[C@@H](CO)O2)c(=O)n1	LAV-Bru	-	CEM13 + CEM	ELISA	-	10 µM	95%
Nc1ccn([C@@H]2CS[C@H](CO)O2)c(=O)n1	SF162 R5	-	PBL (activated) + PBL	RT activity	-	5 µM	100%
CN=C1CN=C(c2ccc[nH]2)c2cc(Cl)ccc2N1	N1T-E	-	CEM/1(N1T-E) + CEM	p24	chronic infection	0.8 µM	90%
CCCCCN1CC[C@H](c2ccc(F)cc2)[C@@H](COc2ccc3c(c2)OCCO3)C1	IIIB	-	MOLT-3	syncytia	-	4 µg/mL	20%
CN1CCN(CCCN2c3ccccc3Sc3ccc(Cl)cc32)CC1	LAV	-	MT-4	-	-	10 µg/mL	>96%
CC(C)C[C@H](NC(=O)[C@H](Cc1ccccc1)NC(=O)CNC(=O)CNC(=O)[C@@H](N)Cc1ccc(O[C@@H]2O[C@H](CO)[C@@H](O)[C@H](O)[C@H]2O)cc1)C(=O)O	-	-	PBL	syncytia / RT activity	-	100 µM	21%
Cc1cn([C@H]2C[C@H](N=[N+]=[N-])[C@@H](COP(=O)(O)OC[C@H]3OC(O)[C@H](O)[C@@H](O)[C@@H]3O)O2)c(=O)[nH]c1=O	LAV-Bru	-	CEM	RT activity	7 d	25 µM	96%
CC1=C(C(=O)Nc2ccc(Cl)c(C(=O)OC(C)C)c2)SCCO1	RF	-	CEM + CEM-SS	XTT	-	2 µM	67%
CC(C)C[C@H](NC(=O)[C@H](Cc1ccccc1)NC(=O)CNC(=O)CNC(=O)[C@@H](N)Cc1ccc(O)cc1)C(=O)OC[C@H]1O[C@@H](OCc2ccccc2)[C@H](O)[C@@H](O)[C@@H]1O	-	-	PBL	syncytia / RT activity	-	100 µM	15%
CC(C)(C)NC(=O)[C@@H]1CN(Cc2cccnc2)CCN1C[C@@H](O)C[C@@H](Cc1ccccc1)C(=O)N[C@H]1c2ccccc2C[C@H]1O	CGP 61755-resistant (PR V32I M46I L63P I84A)	PR-V32I M46I L63P I84A	-	RT activity	10 d	2.7 µM	100%
Cc1cn([C@H]2C=C[C@@H](CO)O2)c(=O)[nH]c1=O	BZ X4	-	PBL (activated) + PBL	RT activity	-	4 µM	99%
CCCCCCCCCCCCCC(=O)OC[C@@H](COP(=O)(O)OC[C@@H]1CC[C@H](n2cc(C)c(=O)[nH]c2=O)O1)OC(=O)CCCCCCCCCCCCC	LAV-Bru	-	CEM13 + CEM	ELISA	-	1 µM	50%
OCCN1CCN(CC/C=C2\c3ccccc3Sc3ccc(C(F)(F)F)cc32)CC1	IIIB	-	MOLT-3	p24	-	10 µg/mL	67%
CC(C)Oc1ccc(OC(C)C)c2c3nc4nc(nc5[nH]c(nc6nc(nc([nH]3)c12)C(SCCCC(=O)O)=C6SCCCC(=O)O)c1c(OC(C)C)ccc(OC(C)C)c51)C(SCCCC(=O)O)=C4SCCCC(=O)O	IIIB	-	MAGI	β-galactosidase	-	5 µg/mL	84%
Cc1cn([C@H]2C[C@H](N=[N+]=[N-])[C@@H](CO)O2)c(=O)[nH]c1=O	BaL	-	HUT/CCR5 + HUT	p24	3 d	0.5 µM	97%
C/C(=C(/CCOC(=O)C(C)C)SS/C(CCOC(=O)C(C)C)=C(\C)N(C=O)Cc1cnc(C)nc1N)N(C=O)Cc1cnc(C)nc1N	MN	-	H9/HIV-1(MN) + H9	p24	-	50 µM	60%
O=C1CN=C(c2ccc[nH]2)c2cc(Cl)ccc2N1	-	-	HeLa (TAT) + HeLa	-	-	1 µM	46%
[Se]	LAV	-	U1	RT activity	-	0.1 µg/mL	26%
CNCCC=C1c2ccccc2CCc2ccccc21	IIIB	-	MOLT-3	RT activity	-	1 µg/mL	15%
OC[C@H]1NC[C@H](O)[C@@H](O)[C@@H]1O	CLB 32	-	U-937	syncytia	-	1000 µM	100%
c1cc(CN2CCCNCCNCCCNCC2)ccc1CN1CCCNCCNCCCNCC1	HE R5X4	-	U87 (CD4+ CCR5+) + U87	p24	-	0.1 µM	5%
OCCN1CCN(CC/C=C2/c3ccccc3Sc3ccc(C(F)(F)F)cc32)CC1	IIIB	-	MOLT-3	syncytia	-	2 µg/mL	34%
CC(C)(C)OC(=O)N[C@@H](CCC(=O)N1C(=O)SC[C@H]1C(=O)O)C(=O)OC(C)(C)C	BaL	-	Macrophage + Monocytes/macrophages	RT activity	-	2000 µM	0%
Cc1cn([C@H]2C[C@H](N=[N+]=[N-])[C@@H](CO)O2)c(=O)[nH]c1=O	LAV-Bru	-	U-937	RT activity	11 d	0.2 µM	0%
CCC[C@@]1(CCc2ccccc2)CC(O)=C([C@H](CC)c2cccc(NS(=O)(=O)c3ccc(C(F)(F)F)cn3)c2)C(=O)O1	Isolate N. Amer 1	-	PBMC	p24	-	0.17 µM	90%
COc1cc(-c2c3nc(c(-c4cc(OC)c(OC)c(OC)c4)c4ccc([n-]4)c(-c4cc(OC)c(OC)c(OC)c4)c4ccc([n-]4)c(-c4cc(OC)c(OC)c(OC)c4)c4nc2C=C4)C=C3)cc(OC)c1OC.[O]=[V+2]	BaL	-	HUT/CCR5 + HUT	p24	7 d	5 µM	73%
N#CC[C@H](C1CCCC1)n1cc(-c2ncnc3[nH]ccc23)cn1	BaL	-	Macrophage	p24 / ELISA	inside macrophages	3.1 µM	90%
c1cc(CN2CCCNCCNCCCNCC2)ccc1CN1CCCNCCNCCCNCC1	SW20 CLADE C R5X4	-	PBMC	p24	-	0.1 µM	0%
CCOC(=O)[C@@H]1CSC(=O)N1C(=O)CC[C@H](N)C(=O)O	BaL	-	Macrophage + Monocytes/macrophages	RT activity	-	2000 µM	63%
Cc1cn([C@H]2C[C@H](N=[N+]=[N-])[C@@H](CO)O2)c(=O)[nH]c1=O	IIIB	-	MT-4	RT activity	-	0.0625 µM	98.62%
C[C@]12CC[C@@H]3c4ccc(O)cc4CC[C@H]3[C@@H]1CC[C@@H]2O	-	-	U1	p24	-	1 µM	-76%

A second listing of 4 rows from above:

compound	strain or isolate	changes	cells	method	conditions	tested at	value
Nc1ccn([C@@H]2CS[C@H](CO)O2)c(=O)n1	SF162 R5	-	PBL (activated) + PBL	RT activity	-	5 µM	100%
CC(C)Oc1ccc(OC(C)C)c2c3nc4nc(nc5[nH]c(nc6nc(nc([nH]3)c12)C(SCCCC(=O)O)=C6SCCCC(=O)O)c1c(OC(C)C)ccc(OC(C)C)c51)C(SCCCC(=O)O)=C4SCCCC(=O)O	IIIB	-	MAGI	β-galactosidase	-	5 µg/mL	84%
COc1cc(O)c2c(=O)oc3cc(O)cc(C)c3c2c1	ZM247Fv1	-	SupT1	luciferase	pseudotyped	35 µM	52%
CC(C)C[C@H](NC(=O)[C@H](Cc1ccccc1)NC(=O)CNC(=O)CNC(=O)[C@@H](N)Cc1ccc(O)cc1)C(=O)O[C@@H]1O[C@H](CO)[C@@H](O)[C@H](O)[C@H]1O	-	-	PBL	syncytia / RT activity	-	100 µM	25%

Percent inhibition refers to the dose given; in toxicity tests it is the harm to the cells. Neighbouring rows are from separate reports.